Measured values from several laboratories, pooled; numbers as filed in NIAID ChemDB.

Common to all: enzyme or target tests; species: Herpes simplex virus 1; protein: DNA polymerase

ICn: concentration for n% inhibition. Lines come from different laboratories, so protocols vary.

smiles,read-out,value
CC(C)(C)OC(=O)CP(=O)(O)O,IC50,3.9 µg/mL
O=C(O)C(O)P(=O)(O)O,IC50,2 µM
O=C(O)CP(=O)(O)O,IC50,7 µM
O=P(O)(O)C(F)P(=O)(O)O,IC50,>100 µM
O=C(O)CP(=O)(O)O,IC50,0.5 µM
O=P(O)(O)C(F)(Cl)P(=O)(O)O,IC50,>100 µM
COC(=O)[C@H]1[C@H](O)[C@@H](C)[C@@H](O)[C@](C)(O)/C=C(\C)C2=C3C(=C(C)C(=O)c4c(O)c(c(C)c(OC(C)=O)c43)NC(=O)/C(C)=C/C=C\[C@@H](C)C(O)[C@@H](C)[C@H]1O)OCO2,IC50,100 µM
O=C(Oc1ccccc1)P(=O)(O)Oc1ccccc1,IC50,>35 µM
Nc1ncnc2c1ccn2[C@@H]1O[C@H](COP(=O)(O)OP(=O)(O)OP(=O)(O)O)[C@@H](O)[C@@H]1O,Ki,17 µM
COc1ccc(P(=O)(O)CC(=O)O)cc1,IC50,150 µg/mL
O=C(O)C(Br)P(=O)(O)O,IC50,6 µM
O=C(O)C(=O)O,IC50,115 µM
O=C(O)C(Br)(Br)P(=O)(O)O,IC50,>100 µM
CC(O)(C(=O)O)P(=O)(O)O,IC50,>500 µM
O=C(O)CP(=O)(O)c1ccccc1,IC50,200 µg/mL

For reference, 2 entries again:

smiles,read-out,value
O=C(O)CP(=O)(O)O,IC50,7 µM
O=C(O)C(Br)(Br)P(=O)(O)O,IC50,>100 µM